Compound potency records, mixed from different reports. Data source: NIAID ChemDB in PubChem.

All rows: whole-cell or culture tests

Inhibition is in % at the dose shown (toxicity tests: loss of growth or viability). Conditions beyond the fields shown may differ between rows. A number after MIC or MFC names an inhibition level or a share of isolates. An empty or dashed field is not shown. a–b is a range or a potency band. Fold resistance has wild type as its base. ECn: concentration that inhibits the pathogen or its effect by n%.

| structure | dose | measure | read by | mutations | agent | strain | cells | value |
|---|---|---|---|---|---|---|---|---|
| Nc1nc2c(ncn2[C@@H]2O[C@H](CO)[C@H]2CO)c(=O)[nH]1 |  | EC50 | plaque count |  | Varicella zoster virus | YS/R (TK-) | HEL | 1.8 µM |
| O=C1C(=O)c2ccccc2C(O)=C1C1CCC(c2ccc(Cl)cc2)CC1 |  | EC50 | luciferase |  | Plasmodium berghei | Pb1052 c11 | HepG2 | 0.00142 µM |
| Nc1ncnc2c1ncn2CCOCP(=O)(O)O |  | EC50 | cytopathic effect |  | Varicella zoster virus | Oka CF1743-resistant | HEL | 8.5 µM |
| C[C@H](Cn1cnc2c(N)ncnc21)OCP(=O)(O)O | 1 µM | inhibition | PCR |  | Hepatitis B virus | Genotype D | HepaRG | ≤30% |
| C[C@H]1COc2c(N3CCN(C)CC3)c(F)cc3c(=O)c(C(=O)O)cn1c23 |  | MIC |  |  | Streptococcus pneumoniae | Clinical isolate RT2 |  | 16 µg/mL |
| CCOC(=O)CC1COP(=O)(CO[C@H](C)Cn2cnc3c(N)ncnc32)OC1 | 1 µM | inhibition | PCR |  | Hepatitis B virus | Genotype D | PHH | ≤30% |
| Cc1cn([C@@H]2O[C@H](CO)[C@@H](O)[C@@H]2O)c(=O)[nH]c1=O |  | EC50 | plaque count |  | Varicella zoster virus | OKA (TK+) | HEL | 0.15 µM |
| CC[C@H]1OC(=O)[C@H](C)[C@@H](O[C@H]2C[C@@](C)(OC)[C@@H](O)[C@H](C)O2)[C@H](C)[C@@H](O[C@@H]2O[C@H](C)C[C@H](N(C)C)[C@H]2O)[C@](C)(O)C[C@@H](C)C(=O)[C@H](C)[C@@H](O)[C@]1(C)O |  | MIC50 |  |  | Haemophilus influenzae | 44 strains |  | 4 µg/mL |
| CCOc1cc(O)c(C(=O)NCc2ccc(OC)cc2)c(OC)c1 |  | EC50 | cytopathic effect |  | Rhinovirus | TYPE 9 | HeLa | 0.063 µg/mL |
| Cc1ccc2ccc3ccc(C)nc3c2n1 |  | EC50 | GFP / microscopy |  | Kaposi sarcoma virus |  | BC3 | <0.05 µM |
| O=c1[nH]c(=O)n([C@@H]2O[C@H](CO)[C@@H](O)[C@@H]2O)cc1/C=C/Br |  | EC50 | syncytia |  | Human herpesvirus 7 |  | SupT1 | >250 µg/mL |
| C#CC[C@@H](C(=O)N[C@H](/C=C/C(=O)OCC)C[C@@H]1CCNC1=O)n1cccc(NC(=O)c2cc(C)on2)c1=O |  | EC50 | cytopathic effect / XTT |  | Rhinovirus | Serotype 16 | H1-HELA | 0.038 µM |
| CCn1cc(C(=O)O)c(=O)c2cc(F)c(N3CCNCC3)cc21 |  | MIC90 |  |  | Haemophilus influenzae | 44 strains |  | 0.06 µg/mL |
| Nc1nc2c(ncn2CCC(CO)CO)c(=O)[nH]1 |  | EC50 | syncytia |  | Human herpesvirus 7 |  | CD4+ T lymphocytes | >250 µg/mL |
| C[C@@H]1CC[C@H]2[C@@H](C)C(=O)O[C@@H]3OC4(C)CC[C@@H]1[C@]32OO4 |  | EC50 | SYBR Green / fluorescence | KAE609-resistant pfatp4 I398F/P990R/D1247Y | Plasmodium falciparum | KAE609R-1 |  | 0.0175 µM |
| CCO/N=C/c1ccc(OCCC2CCN(c3ccc(C)nn3)CC2)cc1 |  | EC50 | neutral red |  | Rhinovirus | 6669-CV39 (ICAM-1 receptor group 61) | KB | 0.073 µM |
| Nc1ccn(C[C@H]2COP(=O)(O)CO2)c(=O)n1 |  | EC50 | syncytia |  | Human herpesvirus 7 |  | CD4+ T lymphocytes | 1 µg/mL |
| O=c1cnn([C@@H]2O[C@H](CO)[C@@H](O)[C@H]2O)c(=O)[nH]1 |  | EC90 | virus yield |  | Dengue virus | TYPE 2 (NGC) | VERO | 2.1 µg/mL |
| CCOC(=O)CC1COP(=O)(CO[C@H](C)Cn2cnc3c(NC(=O)C(C)C)ncnc32)OC1 | 1 µM | inhibition | PCR |  | Hepatitis B virus | Genotype D | PHH | ≤30% |
| CCOC(=O)Nc1cc2c(c(N)n1)N=C(c1ccc3ccccc3c1)CS2 | 0.001 µg/mL | inhibition |  |  | Encephalitozoon intestinalis |  | RK-13 | 6.5% |
| O=c1[nH]c(=O)n([C@H]2C[C@H](O)[C@@H](CO)O2)cc1/C=C/Br |  | EC50 | syncytia |  | Human herpesvirus 7 |  | CD4+ T lymphocytes | >90 µg/mL |
| Nc1ncnc2c1ncn2C[C@H]1COP(=O)(O)CO1 |  | EC50 | plaque count |  | Varicella zoster virus | 07/1 (TK-) | HEL | 0.32 µM |
| COc1ccc(N2CCN(c3cccc(C)c3)CC2)nn1 |  | EC50 | cytopathic effect |  | Rhinovirus | TYPE 2 | HeLa | 0.032 µg/mL |
| Oc1ccc2ccccc2c1N=Nc1ccc(F)cc1 |  | EC50 | GFP / microscopy |  | Kaposi sarcoma virus |  | BC3 | 0.1 µM |
| COc1cc2c(c(OC)c1OC)-c1ccc(OC)c(=O)cc1[C@@H](NC(C)=O)CC2 | 0.1 µg/mL | inhibition |  |  | Encephalitozoon intestinalis |  | RK-13 | 69% |
| CC(C)CCCCCCCCCCCCC(=O)NCC(=O)NC1C(C)OC(Nc2ncnc3nc[nH]c23)C(O)C1O |  | EC50 | GFP / microscopy |  | Kaposi sarcoma virus |  | BC3 | <0.05 µM |
| Nc1ncnc2c1ncn2[C@@H]1C=C(CO)[C@@H](O)[C@H]1O |  | EC50 | cytopathic effect |  | Tacaribe virus |  | VERO | 5.5 µg/mL |
| CO[C@H]1[C@@H](OC(=O)/C=C/C=C/C=C/C=C/C(=O)O)CC[C@@]2(CO2)[C@@H]1[C@@]1(C)O[C@@H]1CC=C(C)C | 0.001 µg/mL | inhibition |  |  | Vittaforma corneae |  | RK-13 | 56.7% |
| O[C@H](c1cc(C(F)(F)F)nc2c(C(F)(F)F)cccc12)[C@@H]1CCCCN1 |  | EC50 | SYBR Green / fluorescence | GNF-Pf4492-resistant pfatp4 I203L/P990R | Plasmodium falciparum | GNF-Pf4492R-2 |  | 0.0113 µM |
| O=c1[nH]c(=O)n([C@H]2C[C@H](O)[C@@H](CO)O2)cc1-c1ccc(Cl)s1 |  | EC50 | plaque count |  | Varicella zoster virus | 07/1 (TK-) | HEL | >58 µM |
| CC(=O)Oc1ccccc1C(=O)Nc1ncc([N+](=O)[O-])s1 | 0.1 µg/mL | inhibition |  |  | Encephalitozoon intestinalis |  | RK-13 | 48.5% |
| CC(C)OC(=O)[C@H](C)N[P@](=O)(CO[C@H](C)Cn1cnc2c(N)ncnc21)Oc1ccccc1 | 1 µM | inhibition | PCR |  | Hepatitis B virus | Genotype D | PHH | ≤30% |
| NC(=O)N=NC(N)=O |  | EC50 | cytopathic effect |  | Tacaribe virus |  | VERO | >100 µM |
| CC(C)OC(=O)[C@H](C)N[P@](=O)(OC[C@H]1O[C@@](C#N)(c2ccc3c(N)ncnn23)[C@](C)(O)[C@@H]1OC(=O)C(C)C)Oc1ccccc1 |  | fold resistance | luciferase | M423T | Hepatitis C virus | 1b Con1 | 1C | 0.76 |
| COc1cc2oc(-c3ccccc3)c(OC)c(=O)c2c(OC)c1OC |  | MIC |  |  | Saccharomyces cerevisiae |  |  | 1000 µg/mL |
| Clc1ccc(C2CCc3ccccc3O2)c(Cl)c1 |  | EC50 | cytopathic effect |  | Rhinovirus | TYPE 2 | HeLa | 0.12–0.25 µg/mL |
| C=CC(=O)Nc1cc(C(C)(C)C)c(O)c(C(C)(C)C)c1 |  | EC50 | GFP / microscopy |  | Kaposi sarcoma virus |  | BC3 | 0.5 µM |
| NC(=O)c1c[se]c([C@@H]2O[C@H](CO)[C@@H](O)[C@H]2O)n1 |  | EC50 | cytopathic effect |  | Rhinovirus | TYPE 9 | HeLa | >4 µg/mL |
| CC(=O)Nc1cc2c(O)c(N=Nc3ccc(S(N)(=O)=O)cc3)c(S(=O)(=O)O)cc2cc1S(=O)(=O)O |  | EC50 | cytopathic effect |  | Tacaribe virus |  | VERO | >100 µM |
| CC[C@]1(O)C[C@H]2CN(CCc3c([nH]c4ccccc34)[C@@](C(=O)OC)(c3cc4c(cc3OC)N(C=O)[C@H]3[C@@](O)(C(=O)OC)[C@H](OC(C)=O)[C@]5(CC)CCCN6CC[C@]43[C@@H]65)C2)C1 |  | EC50 | GFP / microscopy |  | Kaposi sarcoma virus |  | BC3 | <0.05 µM |
| CCOC(=O)CC1COP(=O)(CO[C@H](C)Cn2cnc3c(NC(=O)CC)ncnc32)OC1 | 1 µM | inhibition | PCR |  | Hepatitis B virus | Genotype D | PHH | ≤30% |
| Nc1nc2c(ncn2COCCO)c(=O)[nH]1 |  | EC50 | syncytia |  | Human herpesvirus 7 |  | SupT1 | >250 µg/mL |
| CNC1CCc2cc(OC)c(OC)c(OC)c2-c2ccc(OC)c(=O)cc21 | 1 µg/mL | inhibition |  |  | Encephalitozoon intestinalis |  | RK-13 | 43.76% |
| CC1=C2C(=CC(C)(C)[C@@H]2O)C(=O)[C@](C)(O)C12CC2 |  | EC50 | GFP / microscopy |  | Kaposi sarcoma virus |  | BC3 | <0.05 µM |
| COc1c(O)cc2oc(-c3ccccc3)cc(=O)c2c1O |  | MIC |  |  | Saccharomyces cerevisiae |  |  | 250 µg/mL |
| COc1ccc2nc(C)cc(NCCCCCCCCCNc3cc(C)nc4ccc(OC)cc34)c2c1 |  | EC50 | GFP / microscopy |  | Kaposi sarcoma virus |  | BC3 | 1 µM |
| NC1=NC2C(C=CN2CC(CO)CCO)C(=O)N1 |  | EC50 | syncytia |  | Human herpesvirus 7 |  | SupT1 | >107 µg/mL |
| CCOC(=O)Nc1cc2c(c(N)n1)N=C(c1ccc(OC)c(OC)c1)CO2 | 10 µg/mL | inhibition |  |  | Encephalitozoon intestinalis |  | RK-13 | 77.5% |

Again, the opening 3 rows:

Nc1nc2c(ncn2[C@@H]2O[C@H](CO)[C@H]2CO)c(=O)[nH]1 ; measure: EC50 ; read by: plaque count ; agent: Varicella zoster virus ; strain: YS/R (TK-) ; cells: HEL ; value: 1.8 µM
O=C1C(=O)c2ccccc2C(O)=C1C1CCC(c2ccc(Cl)cc2)CC1 ; measure: EC50 ; read by: luciferase ; agent: Plasmodium berghei ; strain: Pb1052 c11 ; cells: HepG2 ; value: 0.00142 µM
Nc1ncnc2c1ncn2CCOCP(=O)(O)O ; measure: EC50 ; read by: cytopathic effect ; agent: Varicella zoster virus ; strain: Oka CF1743-resistant ; cells: HEL ; value: 8.5 µM